# PubChem BioAssay AID1619 (SRMLSC, 2009)
# Chains of the proteins cited; added tags and fusions are not shown. Lines headed by an entry give the natural chain unless they say otherwise; changes in a name come on top.
# UniProt Q8IL11: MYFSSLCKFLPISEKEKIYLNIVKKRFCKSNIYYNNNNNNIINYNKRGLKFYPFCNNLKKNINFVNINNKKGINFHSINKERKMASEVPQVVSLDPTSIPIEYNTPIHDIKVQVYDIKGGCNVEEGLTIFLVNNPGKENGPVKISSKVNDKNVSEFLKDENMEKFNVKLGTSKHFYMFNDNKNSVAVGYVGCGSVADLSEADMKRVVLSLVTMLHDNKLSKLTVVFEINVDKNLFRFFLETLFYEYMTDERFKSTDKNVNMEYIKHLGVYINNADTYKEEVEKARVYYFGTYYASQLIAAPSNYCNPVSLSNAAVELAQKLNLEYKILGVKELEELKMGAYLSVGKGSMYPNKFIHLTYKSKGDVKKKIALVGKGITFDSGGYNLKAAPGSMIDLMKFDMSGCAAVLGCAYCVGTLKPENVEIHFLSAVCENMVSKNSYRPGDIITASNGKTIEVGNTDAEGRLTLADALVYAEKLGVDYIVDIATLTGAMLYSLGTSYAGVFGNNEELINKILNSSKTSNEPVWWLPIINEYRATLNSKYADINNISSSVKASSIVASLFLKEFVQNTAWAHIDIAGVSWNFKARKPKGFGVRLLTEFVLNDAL
# Values joined by “and” are separate entries in the source; they are usually repeats but may differ in a detail not shown here. Equal values may be shown once. Some of the results follow. Results with a measured potency or affinity are listed apart. Active and inactive are the calls of the source.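 How the source made its calls: active means compound inhibiting the enzyme by more than half at any dose during confirmatory dose-response retesting; inconclusive means strong single-dose inhibitors picked by rank but not retested; inactive means the rest.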
# Target: Leucine aminopeptidase (Plasmodium falciparum (isolate 3D7)) (UniProt Q8IL11)
# Experiment: P. falciparum M17LAP inhibitors, primary screen, biochemical, fluorogenic H-Leu-NHMec substrate, 1536-well (AID 1619);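 further: plate controls were full reaction with DMSO carrier for no effect and no enzyme background for full effect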
# Details: recombinant M17LAP, H-Leu-NHMec fluorogenic kinetic assay; at 30 µM; stronger effect = higher value
row,Compound,inhibition
1,Cc1ccc(NP(=O)(Oc2ccccc2)Oc2ccccc2)nc1,inactive: 2.21%
2,CCc1nc2c(n1)c1c(non1O)c1c2no[n+]1[O-],inactive: -58.3%
3,O=[N+]([O-])c1cc([N+](=O)[O-])c(CCNc2ccccc2)c([N+](=O)[O-])c1,inactive: -5.8%
4,O=[N+]([O-])c1cccc2n[nH]nc12,inactive: 11.7%
5,CC(=O)N1C2C3N(C(C)=O)C1C1N(C(C)=O)C(C(N1C(C)=O)N3C(C)=O)N2C(C)=O,inactive: -5.04%
6,COc1ccc(C2=NCC(CBr)S2)cc1 (centres undefined),inactive: 11.1%
7,CC1CCN(C(=O)Oc2c(Cl)cc(Cl)c3cccnc23)CC1,inactive: 4.36%
8,CC(C)=N/N=C(\N)N[N+](=O)[O-],inactive: -6.62%
9,CN(C)C(=O)OCCc1n(C)cc[n+]1C,inactive: -1.46%
10,CCN(/C(=N/P(=O)(N1CCOCC1)N1CCOCC1)N1CCOCC1)c1ccc(OC)cc1,inactive: 1.7%
11,Nc1ccc([As](=O)(O)c2ccc(N)cc2)cc1,inactive: 8.33%
12,C[N+]1=C2C=CC=CC=C2SC12C([N+](=O)[O-])=CC([N+](=O)[O-])=C[C-]2[N+](=O)[O-] (centres undefined),inactive: 18.9%
13,O=C(Nc1cc([As](=O)(O)O)ccc1O)c1ccccc1,inactive: -2.18%
14,O=C(O)CNc1ccc([As](=O)(O)O)cc1,inactive: 4.36%
15,O=[N+]([O-])c1cccc(NC2=NCC(CBr)S2)c1 (centres undefined),inactive: 0.14%
16,O=[N+]([O-])c1ncn(CCn2ncnc2[N+](=O)[O-])n1,inactive: 14.2%
17,CC(C)(C)C(=O)NC(Sc1ccncn1)C(Cl)(Cl)Cl (centres undefined),inactive: 2.33%
18,CCOP(=O)(Nc1ccccc1)OCC,inactive: 7.17% and inactive: 6.28%
19,Cc1cc(SC(NC(=O)c2ccc(F)cc2)C(Cl)(Cl)Cl)ncn1 (centres undefined),inactive: 10.6%
20,Cc1ccc(NP(=O)(Oc2ccccc2F)Oc2ccccc2F)nc1,inactive: -7.51%
21,O=P(Nc1nc2ccc(Cl)cc2s1)(c1ccccc1)c1ccccc1,inactive: -0.39%
22,O=C(O)c1ccccc1[As](=O)(O)O,inactive: -0.07%

row,Compound,inhibition
1,CC(=O)Nc1ccc([As](=O)(O)O)cc1,inactive: -2.86%
2,Nc1cccc2ccc([As](=O)(O)O)cc12,inactive: -8.36%
3,CCN(N=Nc1nonc1N)c1nonc1N,inactive: 20.2%
4,Clc1ccc(Cl)c(NC2=NCC(CBr)S2)c1 (centres undefined),inactive: 8.16%
5,CN1CCCC(OC(=O)C(c2ccccc2)c2ccccc2)C1 (centres undefined),inactive: 7.64%
6,Cc1ccc(OP(=O)(Nc2nccs2)Oc2ccc(C)cc2)cc1,inactive: -9.36%
7,Cc1ccc(N/C(=N/P(=O)(N2CCOCC2)N2CCOCC2)N2CCOCC2)cc1,inactive: -1.26%
8,NC(=O)c1cc([N+](=O)[O-])cc([N+](=O)[O-])c1N,inactive: 6.44%
9,Oc1ccccc1CNc1ccccn1,inactive: 9.61%
10,Cc1c2non([O-])c-2c(C)[n+](=O)[n+]1[O-],inactive: 11.8%
11,O=C(NC(Sc1ccncn1)C(Cl)(Cl)Cl)c1ccccc1 (centres undefined),inactive: 9.7%
12,CC(C)CC(=O)NC(Sc1ccc(Cl)cc1)C(Cl)(Cl)Cl (centres undefined),inactive: -9.13%
13,CC(C)(C)C(=O)NC(Sc1ccccc1)C(Cl)(Cl)Cl (centres undefined),inactive: 3.86%
14,O=P1(Nc2nc3ccc(Cl)cc3s2)COc2ccccc2O1 (centres undefined),inactive: -6.18%
15,CCOc1ccc(C2=NCC(CBr)S2)cc1 (centres undefined),inactive: 16.5%
16,CC(=O)Nc1ccc([As](=O)(O)O)c(O)c1,inactive: 8.18%
17,CC(=O)Nc1ccc(Oc2c([N+](=O)[O-])cc([N+](=O)[O-])cc2[N+](=O)[O-])cc1,inactive: 12.4%
18,C[C@@H]1C=CCP(=O)(Oc2ccccc2)O1 (some centres undefined),inactive: 8.81%
19,C[C@H]1OP(=O)(Oc2ccccc2)C[C@@H]2O[C@@H]21 (some centres undefined),inactive: -7.35%
20,c1ccc(-c2nn[nH]n2)c(-c2nn[nH]n2)c1,inactive: 16.8%
21,CCOC(=O)NC(Sc1ccccc1)C(Cl)(Cl)Cl (centres undefined),inactive: 5.43%
22,Cc1ccc(NP(=O)(Oc2cccc(C)c2)Oc2cccc(C)c2)nc1,inactive: 19.1%

row,Compound,inhibition
1,CCNC(=S)/N=C(\N)N[N+](=O)[O-],inactive: -0.65%
2,O=C(NC1CCS(=O)(=O)C1)NP(=S)(Oc1ccccc1)Oc1ccccc1 (centres undefined),inactive: -0.8%
3,Cc1ccccc1OP(=O)(Nc1ccccn1)Oc1ccccc1C,inactive: -1.02%
4,CN(C)C(=O)Oc1noc2ccccc12,inactive: 13.6%
5,O=c1c2cc([N+](=O)[O-])ccc2[nH]c2c([N+](=O)[O-])cc([N+](=O)[O-])cc12,inactive: 42%
6,CCC(=O)N1C2C3N(C(=O)CC)C1C1N(C(=O)CC)C(C(N1C(=O)CC)N3C(=O)CC)N2C(=O)CC,inactive: 19.4%
7,COC(=O)c1cc2c(s1)N=C(c1ccccc1)N(C)P2(=O)N1CCOCC1 (centres undefined),inactive: -4.64%
8,Cc1ccc(OP(=O)(Nc2ccccn2)Oc2ccc(C)cc2)cc1,inactive: 3.94%
9,CC(=O)NC(SC(=S)N(CC(C)C)CC(C)C)C(Cl)(Cl)Cl (centres undefined),inactive: 3.22%
10,O=P(Nc1nc2ccccc2s1)(c1ccccc1)c1ccccc1,inactive: -2.02%
11,C[C@H]1OP(=O)(Oc2ccccc2)[C@H](O)[C@H](O)[C@H]1N=[N+]=[N-] (some centres undefined),inactive: -3.28%
12,O=P(Nc1ccccn1)(c1ccc(Br)cc1)c1ccc(Br)cc1,inactive: -3.04%
13,O=C(OC1CN2CCC1CC2)c1cccc(Cl)c1 (centres undefined),inactive: -5.93%
14,Nc1ccc([As](=O)(O)c2ccc([N+](=O)[O-])cc2)cc1,inactive: -3.85%
15,C(Cc1nn[nH]n1)Cc1nn[nH]n1,inactive: 14.7%
16,O=[As](O)(c1ccccc1)c1ccc(O)cc1,inactive: 20.7%
17,O=[N+]([O-])c1ncn(CCn2cnc([N+](=O)[O-])n2)n1,inactive: 6.4%
18,CC(=O)NC(SC(=S)N(C)C)C(Cl)(Cl)Cl (centres undefined),inactive: -9.86%
19,c1nnnn1CCn1cnnn1,inactive: -8.04%
20,CC(C)C(=O)NC(Sc1ccccc1)C(Cl)(Cl)Cl (centres undefined),inactive: -6.93%
